Experimental data as given in the CheMixHub viscosity set.
± gives the uncertainty stated by the source.

Settings: 101 kPa

Structure (SMILES) | viscosity (293.15 K) [mPa·s] | viscosity (298.15 K) [mPa·s] | viscosity (303.15 K) [mPa·s] | viscosity (308.15 K) [mPa·s] | viscosity (313.15 K) [mPa·s] | viscosity (318.15 K) [mPa·s] | viscosity (323.15 K) [mPa·s] | viscosity (298 K) [mPa·s] | viscosity (303 K) [mPa·s] | viscosity (308 K) [mPa·s] | viscosity (313 K) [mPa·s] | viscosity (318 K) [mPa·s] | viscosity (323 K) [mPa·s]
Cn1cc[n+](CCCC#N)c1.O=S(=O)(F)[N-]S(=O)(=O)F | 290.3 ± 17 | 215.4 ± 11 | 160.2 ± 6.6 | 124.6 ± 4.3 | 97.57 ± 2.8 | 77.72 ± 1.9 | 63.27 ± 1.4 |  |  |  |  |  | 
CCC[N+]1(C)CCCC1.O=S(=O)(F)[N-]S(=O)(=O)F |  |  |  |  |  |  |  | 40.6 ± 1.2 | 34.8 ± 1 | 30 ± 0.9 | 26.1 ± 0.8 | 22.9 ± 0.7 | 20.2 ± 0.6
